Pooled drug test results. Numbers come from NIAID ChemDB, via PubChem.

Shared fields: tests in culture; species: Mycobacterium tuberculosis

Inhibition is in % at the dose shown (toxicity tests: loss of growth or viability). Neighbouring rows are from separate reports. MIC bound comes from a single tested concentration. Blank or dashed fields: not listed here.

structure	read-out	strain	tested at	read by	value
C/C=C(\C)C(=O)N[C@@H](c1ccccc1)[C@@H](O)C(=O)OC1C[C@@]2(O)[C@@H](OC(=O)c3ccccc3)[C@@H]3[C@]4(OC(C)=O)CO[C@@H]4C[C@H](O)[C@@]3(C)C(=O)[C@H](OC(C)=O)C(=C1C)C2(C)C	MIC bound	H37Rv	-	BACTEC	>12.5 µg/mL
O=C1c2cc(F)ccc2-n2c1nc1ccc(F)cc1c2=O	MIC	H37Rv	-	-	1 µg/mL
COc1ccc(C2C(Cl)C(=O)C2NC(=O)c2sc3ccc(Oc4ccccc4)cc3c2Cl)cc1OC	inhibition	H37Rv	6.25 µg/mL	-	0%
O=C(OCC1OC(C2N(c3ccccc3)CCN2c2ccccc2)C(OC(=O)c2ccccc2)C1OC(=O)c1ccccc1)c1ccccc1	MIC bound	H37Rv	-	BACTEC	>12.5 µg/mL
O=C(O)Cc1cc(C2CCCCC2)nc2c(C3CCCCC3)cccc12	MIC	H37Rv	-	-	>6.25 µg/mL
COc1cccc2c(=O)n3c(nc12)C(=O)c1cc(F)ccc1-3	MIC	MDR 10038	-	-	<0.3 µg/mL
O=C(N/N=C/c1ccccc1[N+](=O)[O-])c1sc2ccc(Oc3ccccc3)cc2c1Cl	inhibition	H37Rv	6.25 µg/mL	-	0%
CC(C)=CCCC(C)[C@H]1CC[C@@]2(C)C3CCC4C(C)(C)[C@@H](O)CCC45CC35CC[C@]12C	MIC	H37Rv	-	-	>64 µg/mL
O=C(CNC(=O)C(CO)NC(=O)C(Cc1cncn1C(=O)OCc1ccccc1)NC(=O)OCc1ccccc1)Oc1ccc([N+](=O)[O-])cc1	inhibition	H37Rv	12.8 µg/mL	BACTEC	35%
C[C@@H]1CN(c2c(F)c(N)c3c(=O)c(C(=O)O)cn(C4CC4)c3c2F)C[C@H](C)N1	MIC	90-0145 (drug-susceptible)	-	-	0.2 µg/mL
CN[C@@H]1[C@H](O[C@H]2[C@H](O[C@H]3[C@H](O)[C@@H](O)[C@H](N=C(N)N)[C@@H](O)[C@@H]3N=C(N)N)O[C@@H](C)[C@]2(O)C=O)O[C@@H](CO)[C@H](O)[C@H]1O	MIC	MTB11 (EMB-R)	-	-	0.3 µg/mL
COC(=O)c1cc2ccccc2nc1C1CCCCC1	inhibition	H37Rv	6.25 µg/mL	-	35%
CC1=C[C@H](O)[C@@]2(C)C(C3CCC4[C@@]5(C)CC[C@H](O)C(C)(C)C5CC[C@@]4(C)[C@]3(C)C[C@@H]2O)[C@@H]1C	MIC	H37Rv	-	-	>64 µg/mL
CC(=O)NC[C@H]1CN(c2ccc(N3CCOCC3)c(F)c2)C(=O)O1	MIC	263 strains	-	-	0.25 µg/mL
Cc1cc(Br)cc(C)c1NC(=O)C(=O)C(C(=O)c1ccncc1)C1OC(=O)c2ccccc21	MIC bound	H37Rv	-	resazurin	>6.25 µg/mL
CN1CCN(c2ccc3c(c2)-n2c(nc4ccccc4c2=O)C3=O)CC1	MIC	MDR 10038	-	-	5 µg/mL
COc1ccc2c(c1)[n+](=O)c(C(=O)CC(=O)C(=O)Nc1cccc(Cl)c1C)c(C)n2[O-]	MIC	H37Rv	-	BACTEC	≥12.5 µg/mL
COC(=O)c1cc(C2CCCC2)c2c(C3CCCC3)cccc2n1	inhibition	H37Rv	6.25 µg/mL	-	99%
C[C@@H]1CC[C@@]2(C)C(C3=CCC4[C@@]5(C)CC[C@H](O)C(C)(C)C5CC[C@@]4(C)[C@]3(C)C[C@@H]2O)[C@H]1C	MIC	H37Rv	-	-	>64 µg/mL
CCOC(=O)Cc1cc(C2C3CC4CC(C3)CC2C4)nc2ccccc12	MIC	H37Rv	-	-	>6.25 µg/mL
CN1CCN(c2c(F)cc3c(c2F)-n2c(nc4ccccc4c2=O)C3=O)CC1	MIC	MDR 10038	-	-	>5 µg/mL
OC(N1CSC(=S)N(C(O)C(Cl)(Cl)Cl)C1)C(Cl)(Cl)Cl	MIC bound	H37Rv	-	BACTEC	>12.5 µg/mL
CO[C@H]1/C=C/O[C@@]2(C)Oc3c(C)c(O)c4c(O)c(c(/C=N/O)c(O)c4c3C2=O)NC(=O)/C(C)=C\C=C\[C@H](C)[C@H](O)[C@@H](C)[C@@H](O)[C@@H](C)[C@H](OC(C)=O)[C@@H]1C	MIC	H37Rv	-	-	5 µg/mL
COc1ccc(N=Nc2c(O)c3cc(Cl)ccc3[nH]c2=O)c(C)c1	MIC	H37Rv	-	resazurin	>6.25 µg/mL
CO[C@H]1/C=C/O[C@@]2(C)Oc3c(C)c(O)c4c(O)c(c(/C=N/OC/C=C(\C)CC/C=C(\C)CCC=C(C)C)c(O)c4c3C2=O)NC(=O)/C(C)=C\C=C\[C@H](C)[C@H](O)[C@@H](C)[C@@H](O)[C@@H](C)[C@H](OC(C)=O)[C@@H]1C	MIC	H37Rv	-	-	20 µg/mL
CO[C@H]1/C=C/O[C@@]2(C)Oc3c(C)c(O)c4c(O)c(c5c(c4c3C2=O)NC2(CCN(CC(C)C)CC2)N=5)=NC(=O)/C(C)=C\C=C\[C@H](C)[C@H](O)[C@@H](C)[C@@H](O)[C@@H](C)[C@H](OC(C)=O)[C@@H]1C	MBC	2831 (rifampin-sensitive)	-	-	0.05 µg/mL
COC(=O)c1n[nH]c(C)c1N=NN1CCC(C(N)=O)CC1	MIC	H37Rv	-	resazurin	6.25 µg/mL
CC(C)=CCC[C@H](C)[C@@H]1CC[C@]2(C)[C@H]3CCC(=C(C)C)[C@@H](CCCO)[C@]3(C)CC[C@@]12C	MIC	H37Rv	-	-	>64 µg/mL
CC(C)(C)C1=CC(=CC=C2C=CN(CCCCCCCCCCCO)C=C2)C=C(C(C)(C)C)C1=O	MIC	H37Rv	-	BACTEC	1.6 µg/mL
COc1ccc(/C=N/NC(=O)c2sc3ccc(Oc4ccccc4)cc3c2Cl)c(OC)c1OC	inhibition	H37Rv	6.25 µg/mL	-	4%
CCOC(=O)c1ccc2c(c1)C(=O)c1nc3ccccc3c(=O)n1-2	MIC	MDR 10038	-	-	<0.4 µg/mL
CCCCCCO/N=C/c1c2c(O)c3c(O)c(C)c4c(c3c1O)C(=O)[C@@](C)(O/C=C/[C@H](OC)[C@@H](C)[C@@H](OC(C)=O)[C@H](C)[C@H](O)[C@H](C)[C@@H](O)[C@@H](C)/C=C/C=C(/C)C(=O)N2)O4	MIC	H37Rv	-	-	0.5 µg/mL
COc1ccc(N=Nc2c(O)c3ccc(Cl)c(Cl)c3[nH]c2=O)cc1	MIC	H37Rv	-	resazurin	>6.25 µg/mL
O=C(O)c1cc(C2C3CC4CC(C3)CC2C4)nc2ccccc12	inhibition	H37Rv	6.25 µg/mL	-	3%
CO[C@H]1/C=C/O[C@@]2(C)Oc3c(C)c(O)c4c(O)c(c(/C=N/N5CCN(C/C=C/c6ccccc6)CC5)c(O)c4c3C2=O)NC(=O)/C(C)=C\C=C\[C@H](C)[C@H](O)[C@@H](C)[C@@H](O)[C@@H](C)[C@H](OC(C)=O)[C@@H]1C	MBC	2230 (rifampin-resistant)	-	-	0.8 µg/mL
COC(=O)c1cc(C2C3CC4CC(C3)CC2C4)nc2ccccc12	MIC	H37Rv	-	-	>6.25 µg/mL
O=c1[nH]c2cc(Cl)ccc2c(O)c1N=Nc1ccc(F)cc1	MIC	H37Rv	-	resazurin	<6.25 µg/mL
CC1(C)CC[C@]2(CO)[C@@H](CO)C[C@]3(C)C(=CC[C@@H]4[C@@]5(C)CC[C@H](O)C(C)(C)[C@@H]5CC[C@]43C)[C@@H]2C1	MIC	H37Rv	-	-	32 µg/mL
Cc1noc(NS(=O)(=O)c2ccc(N=C3C(=O)Nc4ccccc43)cc2)c1C	inhibition	H37Rv	12.5 µg/mL	BACTEC	3%
Cc1ccc(N=Nc2c(O)c3ccc([N+](=O)[O-])cc3[nH]c2=O)cc1	MIC	H37Rv	-	resazurin	<6.25 µg/mL
CCOC(=O)Cc1cc(C2CCCC2)nc2ccccc12	inhibition	H37Rv	6.25 µg/mL	-	63%
COc1ccc(N=Nc2c(O)c3cc(Cl)ccc3[nH]c2=O)cc1	inhibition	H37Rv	6.25 µg/mL	resazurin	55%
C/C=C(\C)C(=O)O[C@H]1C[C@@H](OC(C)=O)[C@@]2(C(=O)OC)CO[C@H]3[C@@H](O)[C@@](C)([C@]45O[C@@]4(C)[C@H]4C[C@@H]5O[C@@H]5OC=C[C@@]54O)[C@H]4[C@]1(CO[C@]4(O)C(=O)OC)[C@@H]32	inhibition	H37Rv	12.5 µg/mL	BACTEC	16%
CC1(C)CC[C@@]2(C)C(=C3CC[C@@H]4[C@@]5(C)CC[C@H](O)C(C)(C)[C@@H]5CC[C@@]4(C)[C@]3(C)C[C@@H]2O)C1	MIC	H37Rv	-	-	>64 µg/mL
CCCCCCCCCCCCO/N=C/c1c2c(O)c3c(O)c(C)c4c(c3c1O)C(=O)[C@@](C)(O/C=C/[C@H](OC)[C@@H](C)[C@@H](OC(C)=O)[C@H](C)[C@H](O)[C@H](C)[C@@H](O)[C@@H](C)/C=C/C=C(/C)C(=O)N2)O4	MIC	H37Rv	-	-	>20 µg/mL
CC[C@H]1OC(=O)[C@H](C)[C@@H](O[C@H]2C[C@@](C)(OC)[C@@H](OC(C)=O)[C@H](C)O2)[C@H](C)[C@@H](O[C@@H]2O[C@H](C)C[C@H](N(C)C)[C@H]2O)C(C)(O)C[C@@H](C)/C(=N\OCCCC2CCCCC2)[C@H](C)[C@@H](O)[C@]1(C)O	MIC	4 (MDR)	-	-	3.13 µg/mL
C=C(C)C1CC=C(C)/C(=N/NC(=O)c2cccnc2)C1	MIC	INH-r	-	-	>12.5 µg/mL
CO[C@H]1/C=C/O[C@@]2(C)Oc3c(C)c(O)c4c(O)c(c(/C=N/N5CCN(C)CC5)c(O)c4c3C2=O)NC(=O)/C(C)=C\C=C\[C@H](C)[C@H](O)[C@@H](C)[C@@H](O)[C@@H](C)[C@H](OC(C)=O)[C@@H]1C	MIC	92-0492 MDR (INH RIF-resistant)	-	-	>32 µg/mL
Nc1c(/C=C/c2cc3cc(C4=NCCN4)ccc3o2)[nH]c2cc(C3=NCCN3)ccc12	inhibition	H37Rv	12.5 µg/mL	BACTEC	1%
O=C1c2ccccc2-n2c1nc1ccsc1c2=O	MIC	H37Rv	-	-	5 µg/mL
CN(C)c1ccc(CC(=O)N2COC(c3sc4ccc(Oc5ccccc5)cc4c3Cl)=N2)cc1	inhibition	H37Rv	6.25 µg/mL	-	4%
S=c1n(-c2ccc(Cl)cc2)c2/c(=N/Nc3cc(Cl)ccc3Cl)c(n1-c1ccccn1)=NCCN=2	inhibition	H37Rv	12.5 µg/mL	BACTEC	71%
CC[C@H]1OC(=O)[C@H](C)[C@@H](O[C@H]2C[C@@](C)(OC)[C@@H](O)[C@H](C)O2)[C@H](C)[C@@H](O[C@@H]2O[C@H](C)C[C@H](N(C)C)[C@H]2O)[C@](C)(OC)C[C@@H](C)C(=O)[C@H](C)[C@@H](O)[C@]1(C)O	MIC	90-0233 (INH SM-RS)	-	-	2 µg/mL
CCOC(=O)c1cc2cc(C)cc(C(=O)c3ccc([N+](=O)[O-])cc3)c2[nH]1	MIC bound	H37Rv	-	resazurin	>6.25 µg/mL
CN(C)c1ccc(/C=N/NC(=O)c2sc3ccc(Oc4ccccc4)cc3c2Cl)cc1	inhibition	H37Rv	6.25 µg/mL	-	16%
COC(=O)[C@@]12OC[C@]34C([C@@H](O)[C@@H]1O)[C@@]1(C)CC(=O)C(O)=C(C)[C@@H]1C[C@H]3OC(=O)[C@H](OC(=O)/C=C(\C)C(C)(C)O)[C@@H]24	inhibition	H37Rv	12.5 µg/mL	BACTEC	5%
Cc1cccc2c(=O)n3c(nc12)C(=O)c1cc(F)ccc1-3	MIC	MDR 10038	-	-	5 µg/mL
CN(C)C(=S)SCN1C(=O)c2ccccc2C1=O	MIC	EMB-R	-	-	3.2 µg/mL
NNC(=O)c1ccncc1	MIC	90-0145 (drug-susceptible)	-	-	0.04 µg/mL
CC(=O)NNc1nc(C)c(C(=O)/C=C/c2ccc(/C=C/C(=O)c3sc(NNC(C)=O)nc3C)cc2)s1	inhibition	H37Rv	6.25 µg/mL	resazurin	-24%
NNC(=O)c1ccncc1	MIC	MTB11 (EMB-R)	-	-	>4 µg/mL
CCc1ccc(C(=O)N/N=C(\C)[C@]2(O)Cc3c(O)c4c(c(O)c3[C@H](O[C@H]3C[C@H](N)[C@H](O)[C@H](C)O3)C2)C(=O)c2c(OC)cccc2C4=O)cc1	MIC	INH-r	-	-	>12.5 µg/mL
O=c1[nH]c2c(Cl)cccc2c(O)c1N=Nc1cccc([N+](=O)[O-])c1	inhibition	H37Rv	6.25 µg/mL	resazurin	24%
COc1ccc(/C=C2\N=C(c3ccc([N+](=O)[O-])cc3)OC2=O)cc1OC	inhibition	H37Rv	12.5 µg/mL	BACTEC	-22%
CN1CCN(c2cccc3c2C(=O)c2nc4ccccc4c(=O)n2-3)CC1	MIC	MDR 10038	-	-	>5 µg/mL
Cc1ccc2nc3c(Cl)cc(=O)cc-3sc2c1	inhibition	H37Rv	12.5 µg/mL	BACTEC	99%
NC[C@H]1O[C@H](O[C@H]2[C@H](O)[C@@H](O[C@H]3O[C@H](CO)[C@@H](O)[C@H](N)[C@H]3O)[C@H](N)C[C@@H]2N)[C@H](O)[C@@H](O)[C@@H]1O	MIC	92-0492 MDR (INH RIF-resistant)	-	-	2 µg/mL

Repeating the first 5 entries:

structure,read-out,strain,tested at,read by,value
C/C=C(\C)C(=O)N[C@@H](c1ccccc1)[C@@H](O)C(=O)OC1C[C@@]2(O)[C@@H](OC(=O)c3ccccc3)[C@@H]3[C@]4(OC(C)=O)CO[C@@H]4C[C@H](O)[C@@]3(C)C(=O)[C@H](OC(C)=O)C(=C1C)C2(C)C,MIC bound,H37Rv,-,BACTEC,>12.5 µg/mL
O=C1c2cc(F)ccc2-n2c1nc1ccc(F)cc1c2=O,MIC,H37Rv,-,-,1 µg/mL
COc1ccc(C2C(Cl)C(=O)C2NC(=O)c2sc3ccc(Oc4ccccc4)cc3c2Cl)cc1OC,inhibition,H37Rv,6.25 µg/mL,-,0%
O=C(OCC1OC(C2N(c3ccccc3)CCN2c2ccccc2)C(OC(=O)c2ccccc2)C1OC(=O)c1ccccc1)c1ccccc1,MIC bound,H37Rv,-,BACTEC,>12.5 µg/mL
O=C(O)Cc1cc(C2CCCCC2)nc2c(C3CCCCC3)cccc12,MIC,H37Rv,-,-,>6.25 µg/mL